A mixed list of measured activities; the numbers were collected in NIAID ChemDB.

All rows: whole-cell or culture tests

An empty or dashed field is not shown. A number after MIC or MFC names an inhibition level or a share of isolates. Percent inhibition refers to the dose given; in toxicity tests it is the harm to the cells. Rows are shuffled and stem from different studies.

compound	organism	strain	read by	setting	measure	tested at	value
CCCCO/N=C1\[C@H](C)CC(C)(O)[C@H](O[C@@H]2O[C@H](C)C[C@H](N(C)C)[C@H]2O)[C@@H](C)[C@H](O[C@H]2C[C@@](C)(OC)[C@@H](OC(C)=O)[C@H](C)O2)[C@@H](C)C(=O)O[C@H](CC)[C@@](C)(O)[C@H](O)[C@H]1C	Mycobacterium avium complex	20096 (clarithromycin-resistant)	-	-	MIC	-	>50 µg/mL
COc1ccc2oc(=O)n(-c3cccc(Cl)c3)c(=S)c2c1	Mycobacterium kansasii	My 235/80	-	21 d	MIC	-	32 µM
CCCCCCCCCCCCCCNC(=O)NC(CCC(=O)O)(CCC(=O)O)CCC(=O)O	Mycobacterium chelonae	EO-P-1	-	-	MIC	-	18 µg/mL
CC[C@H]1OC(=O)[C@H](C)[C@@H](O[C@H]2C[C@@](C)(OC)[C@@H](OC(C)=O)[C@H](C)O2)[C@H](C)[C@@H](O[C@@H]2O[C@H](C)C[C@H](N(C)C)[C@H]2OC(=O)NNCCCc2ccccc2)C(C)(O)C[C@@H](C)/C(=N\OCCCC2CCCCC2)[C@H](C)[C@@H](O)[C@]1(C)O	Mycobacterium avium complex	20092 (clarithromycin-resistant)	-	-	MIC	-	1.56 µg/mL
CCc1nc2cc(F)ccn2c1C(=O)NCc1ccc(N2CCN(c3ccc(C(F)(F)F)cc3)[C@@H](C)C2)c(F)c1.Cl	Mycobacterium avium	-	fluorescence	-	inhibition	0.0014 µM	85%
CCCCCCCN(CCCCCCC)C(=O)NC(CCC(=O)O)(CCC(=O)O)CCC(=O)O	Mycobacterium chelonae	EO-P-1	-	-	MIC	-	54 µg/mL
CCCCOc1ccc(N2CCN(c3ccc(CNC(=O)c4c(CC)nc5cc(F)ccn45)cc3F)C[C@@H]2C)cc1.Cl	Mycobacterium avium	-	fluorescence	-	inhibition	0.0074 µM	85%
CC[C@H]1OC(=O)[C@H](C)[C@@H](OC2C[C@@](C)(OC)[C@@H](O)[C@H](C)O2)[C@H](C)[C@@H](O[C@@H]2O[C@H](C)C[C@H](N(C)C)[C@H]2O)C(C)(O)C[C@@H](C)/C(=N\OCCSc2ccccc2)[C@H](C)[C@@H](O)[C@]1(C)O	Mycobacterium avium complex	20039 (clarithromycin-susceptible)	-	-	MIC	-	1.56 µg/mL
Cc1ccn2c(C(=O)NCc3ccc(C4CCN(c5ccc(OC(F)(F)F)cc5F)CC4)c(F)c3)c(C)nc2c1	Mycobacterium avium	-	fluorescence	-	inhibition	0.028 µM	85%
COc1ccc2oc(=S)n(-c3ccc(C(F)(F)F)cc3)c(=S)c2c1	Mycobacterium kansasii	6509/96	-	14 d	MIC	-	32 µM
CC[C@H]1OC(=O)[C@H](C)[C@@H](O[C@H]2C[C@@](C)(OC)[C@@H](OC(C)=O)[C@H](C)O2)[C@H](C)[C@@H](O[C@@H]2O[C@H](C)C[C@H](N(C)C)[C@H]2O)C(C)(O)C[C@@H](C)/C(=N\OCCC2CCCCC2)[C@H](C)[C@@H](O)[C@]1(C)O	Mycobacterium avium complex	20092 (clarithromycin-resistant)	-	-	MIC	-	3.13 µg/mL
COc1ccc2oc(=S)n(-c3ccc(F)cc3)c(=S)c2c1	Mycobacterium kansasii	My 235/80	-	14 d	MIC	-	16 µM
CC[C@H]1OC(=O)[C@H](C)[C@@H](O[C@H]2C[C@@](C)(OC)[C@@H](OC(C)=O)[C@H](C)O2)[C@H](C)[C@@H](O[C@@H]2O[C@H](C)C[C@H](N(C)C)[C@H]2OC(=O)NNCc2ccc(OC)cc2)C(C)(O)C[C@@H](C)/C(=N\OCCCC2CCCCC2)[C@H](C)[C@@H](O)[C@]1(C)O	Mycobacterium avium complex	20039 (clarithromycin-susceptible)	-	-	MIC	-	0.78 µg/mL
CCCCCCCCCCCCCCCCCCCC(=O)NC(CCC(=O)O)(CCC(=O)O)CCC(=O)O	Mycobacterium marinum	ATCC 927	-	-	MIC	-	27 µg/mL
COc1ccc2oc(=S)n(-c3ccc(Br)cc3)c(=S)c2c1	Mycobacterium kansasii	6509/96	-	14 d	MIC	-	32 µM
CC[C@H]1OC(=O)[C@H](C)[C@@H](OC2C[C@@](C)(OC)[C@@H](O)[C@H](C)O2)[C@H](C)[C@@H](O[C@@H]2O[C@H](C)C[C@H](N(C)C)[C@H]2O)C(C)(O)C[C@@H](C)/C(=N\OCCc2cccs2)[C@H](C)[C@@H](O)[C@]1(C)O	Mycobacterium avium complex	20039 (clarithromycin-susceptible)	-	-	MIC	-	1.56 µg/mL
CCc1nc2cc(F)ccn2c1C(=O)NCc1ccc(C2CCN(c3ccc(C(F)(F)F)cc3)CC2)cc1F.Cl	Mycobacterium avium	-	fluorescence	-	inhibition	0.0024 µM	85%
CCCCCCCCCCCCCCCCCCCCNC(=O)NC(CCC(=O)O)(CCC(=O)O)CCC(=O)O	Mycobacterium chelonae	EO-P-1	-	-	MIC	-	36 µg/mL
CC(C)N=C(N)/N=C(\N)NOCCCOc1cc(Cl)c(Cl)cc1Cl	Mycobacterium avium complex	9141	-	-	MIC	-	32 µg/mL
CCCCCCCCCCCCCCCCCCC(=O)NC(C)(CCC(=O)O)CCC(=O)O	Mycobacterium marinum	ATCC 927	-	-	MIC	-	215 µg/mL
Cc1ccc2oc(=O)n(-c3ccc(C(F)(F)F)cc3)c(=S)c2c1	Mycobacterium kansasii	6509/96	-	14 d	MIC	-	16 µM
Cc1ccn2c(C(=O)NCc3ccc(C4CCN(c5ccc(OCC(F)(F)F)cc5)CC4)c(F)c3)c(C)nc2c1	Mycobacterium avium	-	fluorescence	-	inhibition	0.038 µM	85%
CCc1nc(N)nc(N)c1-c1ccc(Cl)cc1	Mycobacterium avium complex	DW28	-	-	MIC	-	32 µg/mL
Cc1nc2ccc(F)cn2c1C(=O)NCc1ccc(N2CCN(c3ccc(C(F)(F)F)cn3)CC2)c(C(F)(F)F)c1	Mycobacterium avium	-	fluorescence	-	inhibition	0.42 µM	85%
CCCCCCCCCCCCCC(=O)NC(CCC(=O)O)(CCC(=O)O)CCC(=O)O	Mycobacterium chelonae	EO-P-1	-	-	MIC	-	36 µg/mL
CCc1nc2ccc(Cl)cn2c1C(=O)NCc1ccc(C2CCN(c3ccc(OC4CC4)cc3)CC2)c(F)c1.Cl	Mycobacterium avium	-	fluorescence	-	inhibition	0.039 µM	85%
CCCCCCCCCCCCCCCCC(=O)NC(C)(CCC(=O)O)CCC(=O)O	Mycobacterium marinum	ATCC 927	-	-	MIC	-	286 µg/mL
Cc1cn2c(C(=O)NCc3ccc(N4CCC(c5ccc(OC(F)(F)F)cc5)CC4)c(F)c3)c(C)nc2s1.Cl	Mycobacterium avium	-	fluorescence	-	inhibition	0.26 µM	85%
CC[C@H]1OC(=O)[C@H](C)[C@@H](O[C@H]2C[C@@](C)(OC)[C@@H](OC(C)=O)[C@H](C)O2)[C@H](C)[C@@H](O[C@@H]2O[C@H](C)C[C@H](N(C)C)[C@H]2O)C(C)(O)C[C@@H](C)/C(=N\OCCc2ccccc2)[C@H](C)[C@@H](O)[C@]1(C)O	Mycobacterium avium complex	20092 (clarithromycin-resistant)	-	-	MIC	-	12.5 µg/mL
CO[C@H]1/C=C/O[C@@]2(C)Oc3c(C)c(O)c4c(O)c(c(/C=N/N5CCN(C6CCCC6)CC5)c(O)c4c3C2=O)NC(=O)/C(C)=C\C=C\[C@H](C)[C@H](O)[C@@H](C)[C@@H](O)[C@@H](C)[C@H](OC(C)=O)[C@@H]1C	Mycobacterium avium intracellulare	21 strains	-	-	MIC90	-	1 µg/mL
CCc1nc2ccc(Cl)cn2c1C(=O)NCc1ccc(C2CCN(c3ccc(C(C)(C)C)cc3)CC2)cc1F.Cl	Mycobacterium avium	-	fluorescence	-	inhibition	0.017 µM	85%

A second listing of 3 rows from above:

| compound | organism | strain | read by | setting | measure | tested at | value |
|---|---|---|---|---|---|---|---|
| COc1ccc2oc(=O)n(-c3cccc(Cl)c3)c(=S)c2c1 | Mycobacterium kansasii | My 235/80 | - | 21 d | MIC | - | 32 µM |
| CCCCCCCCCCCCCC(=O)NC(CCC(=O)O)(CCC(=O)O)CCC(=O)O | Mycobacterium chelonae | EO-P-1 | - | - | MIC | - | 36 µg/mL |
| Cc1ccn2c(C(=O)NCc3ccc(C4CCN(c5ccc(OC(F)(F)F)cc5F)CC4)c(F)c3)c(C)nc2c1 | Mycobacterium avium | - | fluorescence | - | inhibition | 0.028 µM | 85% |